Pooled drug test results. Numbers come from NIAID ChemDB, via PubChem.

Shared fields: target-level tests; organism: HIV-1; target: Reverse transcriptase

Rows are shuffled and stem from different studies. ICn is the concentration giving n% inhibition. An empty or dashed field is not shown.

smiles	strain	endpoint	method	mutations	result
Cc1cccc(NC(=S)NC[C@H](C)c2ccccc2)n1	-	IC50	-	-	16.71 µM
O=C(CSc1nnnn1-c1cccc(Cl)c1Cl)Nc1ccccc1Cl	-	IC50	nucleotide incorporation / radiometric	-	<2 µM
Cc1cn([C@H]2C[C@H](F)[C@@H](COP([O-])(=S)OP(=O)(O)C(F)(F)P(=O)(O)O)O2)c(=O)[nH]c1=O	-	Ki	fluorescence	-	0.735 µM
C[C@@H](CNC(=S)Nc1ccccn1)C1CCCCC1	-	Ki	-	-	>100 µM
CCS(=O)(=O)N1CCN(C(=O)c2cc(O)c(O)c(O)c2)CC1	BH10	IC50	ELISA / nucleotide incorporation	-	>50 µM
Nc1ccn([C@@H]2CS[C@H](COP(=O)(O)OP(=O)(O)OP(=O)(O)O)O2)c(=O)n1	-	Ki	fluorescence	-	0.188 µM
Cc1cc(C)c2nc(NC(=S)NC[C@H](C)c3ccccc3)sc2c1	-	IC50	-	-	38.75 µM
Cc1cc(C)c(S(=O)(=O)N2CCN(C(=O)c3cc(O)c(O)c(O)c3)CC2)c(C)c1	BH10	IC50	ELISA / nucleotide incorporation	-	>50 µM
CCC(NC(=S)Nc1ccc(Br)cn1)c1ccccc1	-	IC50	-	-	5.4 µM
COc1ncccc1NC(=O)CSc1nnnn1-c1c(C)cc(C)cc1C	-	IC50	nucleotide incorporation / radiometric	-	<2 µM
CC(=O)N1CCN(C(=O)c2cc(O)c(O)c(O)c2)CC1	BH10	IC50	ELISA / nucleotide incorporation	-	>50 µM
Cc1ccc(-n2nnnc2SCC(=O)Nc2ccccc2[N+](=O)[O-])cc1	-	IC50	nucleotide incorporation / radiometric	-	<2 µM
C[C@H](CNC(=S)Nc1ccc(Cl)cn1)C1CCCCC1	-	IC50	-	-	>100 µM
Cc1cc(C)c(-n2nnnc2SCC(=O)Nc2cccc(F)c2F)c(C)c1	-	IC50	nucleotide incorporation / radiometric	-	<2 µM
CCCS(=O)(=O)N1CCN(C(=O)c2cc(O)c(O)c(O)c2)CC1	BH10	IC50	ELISA / nucleotide incorporation	-	>50 µM
[B-][P@](=O)(OC[C@H]1O[C@@H](n2cc(C)c(=O)[nH]c2=O)C[C@@H]1N=[N+]=[N-])OP(=O)(O)C(F)(F)P(=O)(O)O	-	Ki	fluorescence	-	0.0096 µM
CN(C)c1ccc(-n2nnnc2SCC(=O)Nc2ccccc2Cl)cc1	-	IC50	nucleotide incorporation / radiometric	-	<2 µM
Cc1cn([C@H]2C[C@H](F)[C@@H](COP(=O)(O)OP(=O)(O)OP(=O)(O)O)O2)c(=O)[nH]c1=O	-	Ki	fluorescence	-	0.0093 µM
Cc1cc(C)cc(S(=O)(=O)N2CCC(NC(=O)c3cc(O)c(O)c(O)c3)CC2)c1	BH10	IC50	ELISA / nucleotide incorporation	-	>158.6 µM
COc1ccc2c(c1)N(C(=O)OC(C)C)[C@@H](CSC)C(=S)N2	-	IC50	scintillation proximity / radiometric	RT-E138K	0.22 µM
Cc1cc(C)c(-n2nnnc2SCC(=O)Nc2ccc(C(N)=O)cc2Cl)c(C)c1	-	IC50	nucleotide incorporation / radiometric	-	<2 µM
Cc1cc(S(N)(=O)=O)ccc1NC(=O)COc1ccc(Cl)cc1C(=O)c1cc(Cl)cc(C#N)c1	-	IC50	fluorescence	RT-Y181C	0.0023 µM
COc1ccc(NC(=O)CSc2nnnn2-c2c(C)cc(C)cc2C)c(C)c1	-	IC50	nucleotide incorporation / radiometric	-	<2 µM
Cc1cccc2sc(NC(=S)NC[C@H](C)c3ccccc3)nc12	-	IC50	-	-	>100 µM
Cc1cccc(C)c1-n1nnnc1SCC(=O)Nc1ccccc1[N+](=O)[O-]	-	IC50	nucleotide incorporation / radiometric	-	<2 µM
C[C@H](CNC(=S)Nc1nccs1)c1ccccc1	-	IC50	-	-	>100 µM

The first 3 rows once more:

smiles | strain | endpoint | method | mutations | result
Cc1cccc(NC(=S)NC[C@H](C)c2ccccc2)n1 | - | IC50 | - | - | 16.71 µM
O=C(CSc1nnnn1-c1cccc(Cl)c1Cl)Nc1ccccc1Cl | - | IC50 | nucleotide incorporation / radiometric | - | <2 µM
Cc1cn([C@H]2C[C@H](F)[C@@H](COP([O-])(=S)OP(=O)(O)C(F)(F)P(=O)(O)O)O2)c(=O)[nH]c1=O | - | Ki | fluorescence | - | 0.735 µM